Pooled drug test results. Numbers come from NIAID ChemDB, via PubChem.

Shared fields: growth or infection tests; organism: HIV-1; endpoint: EC50

ECn: concentration that inhibits the pathogen or its effect by n%.

structure	setting	mutations	strain or isolate	cell line	value
OCC1(F)OC(n2cnc3c(N(Cc4ccccc4)Cc4ccccc4)ncnc32)CC1OCc1ccccc1	-	-	-	-	4 µM
Nc1ccc(C[C@@H]2[C@H](O)[C@@H](O)[C@@H](Cc3ccc(N)cc3)N(Cc3cccc(C(=O)Nc4nc5ccccc5[nH]4)c3)C(=O)N2Cc2cccc(C(=O)Nc3nc4ccccc4[nH]3)c2)cc1	3 d	PR-I84V	RF	MT-2	<0.023 µM
COC(=O)CCC(C)[C@H]1CCC2C3CC[C@@H]4C[C@H](OC(=O)c5ccccc5)CC[C@]4(C)C3=C(NC(=O)OCc3ccccc3)C(=O)[C@@]21C	-	-	IIIB	C8166	8 µM
CC(C)=CCOc1cc(NC(=S)c2ccoc2C)ccc1Cl	-	-	RF	CEM + CEM-SS	0.02 µM
Cc1cn([C@@H]2O[C@H](CO[Si](C)(C)C(C)(C)C)C3(OS(=O)(=O)C=C3N)[C@H]2O[Si](C)(C)C(C)(C)C)c(=O)n(CCC[N+](C)(C)C)c1=O.[I-]	-	-	-	-	0.03–0.76 µM
Cc1cn([C@H]2C[C@H](N=[N+]=[N-])[C@@H](COP(=O)(O)OCc3ccccc3)O2)c(=O)[nH]c1=O	-	-	-	CEM + CEM-SS	<0.005 µM
Nc1ccn([C@@H]2S[C@H](CO)C=C2F)c(=O)n1	-	-	xxBRU	PBMC	<5 µM
CC(C)CN(C[C@@H](O)[C@H](Cc1ccccc1)NC(=O)O[C@H]1CCOC1)S(=O)(=O)c1ccc(N)cc1	-	-	-	MT-4	0.032 µM
CC(C)CN(C[C@@H](O)[C@H](Cc1ccccc1)NC(=O)[C@@H](NC(=O)CNCc1cccc(F)c1)C(C)(C)C)S(=O)(=O)c1cccc(N)c1	-	-	RF	MT-2	<0.0039 µM
O=C1CC(c2ccccc2)Oc2cc(OC3O[C@H](CO)[C@@H](O)[C@H](O)[C@H]3O)ccc21	-	-	-	-	>20 µM
O=C(OC[C@H]1OC(=O)c2ccccc21)c1ccccc1	-	-	-	MT-4	>10 µM
CC1=C(C(=O)Nc2ccc(Cl)c(C(=O)OC(C)C)c2)SCCO1	-	-	RF	CEM + CEM-SS	0.42 µM
O=S(=O)(c1ccccc1)c1ccccc1	-	-	-	-	7 µM
Nc1nc(N)c2ncn(CC(CF)OCP(=O)(O)O)c2n1	-	-	BaL	Macrophage + Monocytes/macrophages	0.2 µM
O=C1O[C@H]2[C@@H]3OC(=O)c4cc(O)c(O)c(O)c4-c4c(cc(O)c(O)c4O)C(=O)OC[C@H]2O[C@@H](OC(=O)c2cc(O)c(O)c(O)c2)[C@@H]3OC(=O)c2cc(O)c(O)c3c2[C@@H]2C1=CC(=O)[C@](O)(O3)C2(O)O	-	RT-K65R M184V	NRTI resistant (RT K65R M184V) ARP1006	MAGI	2.4 µg/mL
Cc1ccc2c(C)ccc(-n3c(C)nnc3SCC(=O)Nc3ccc(S(N)(=O)=O)cc3Cl)c2c1	-	Y188L	-	HeLa	0.006 µM
CC(C)OC(=O)[C@H](C)N[P@@](=O)(CO[C@H](C)Cn1cnc2c(N)ncnc21)Oc1ccccc1	-	-	-	-	0.06 µM
CCCCCC[C@@H]1[C@H](O)[C@@H](O)[C@@H](Cc2ccccc2)N(Cc2cccc(C(=O)Nc3nc4ccccc4[nH]3)c2)C(=O)N1Cc1cccc(C(=O)Nc2nc3ccccc3[nH]2)c1	3 d	PR-I84V	RF	MT-2	<0.024 µM
O=C(NCCCCN1CCCC2=C[C@H]3C[C@H](CN4CCCC[C@H]34)[C@@H]21)c1ccc(S(=O)(=O)F)cc1	-	-	-	-	>20 µM
Nc1nccc2c1ncn2[C@@H]1C[C@H](CO)[C@@H](O)[C@H]1O	-	-	A012 PRE-AZT	PBMC	0.141 µM
Nc1ccn([C@H]2S[C@@H](CO)C=C2F)c(=O)n1	-	-	xxBRU	PBMC	<1.4 µM
CC(=O)OC[C@@H]1C[C@H](N=[N+]=[N-])C[C@H](n2cc(C)c(=O)[nH]c2=O)O1	-	-	IIIB	MT-4	>333 µM
CC[C@@H]1[C@H](O)[C@@H](O)[C@@H](Cc2ccccc2)N(Cc2cccc(C(=O)Nc3nc4ccccc4[nH]3)c2)C(=O)N1Cc1cccc(C(=O)Nc2nc3ccccc3[nH]2)c1	3 d	-	RF	MT-2	<0.026 µM
C=O.Cc1cn(C2CC(N(N)N)C(OP(N)(=O)OCC3OC(n4ccc(N)nc4=O)CS3)O2)c(=O)[nH]c1=O	-	-	-	-	0.011 µM
CC(C)=CCN1Cc2cccc3[nH]c(=O)n(c23)CC1C	-	-	-	-	0.1 µM
Nc1ncnc2c1ncn2[C@H]1CC[C@@H](CO)O1	-	-	-	PBMC	0.09 µM
Cc1cn([C@@H]2O[C@H](CO[Si](C)(C)C(C)(C)C)C3(OS(=O)(=O)C=C3N)[C@H]2O[Si](C)(C)C(C)(C)C)c(=O)n(CCCNC(=O)OCc2ccccc2)c1=O	-	-	-	-	0.03–0.76 µM
COC(=O)N[C@H](C(=O)N[C@@H](Cc1ccccc1)[C@@H](O)CN(Cc1ccc(-c2ccccn2)cc1)NC(=O)[C@@H](NC(=O)OC)C(C)(C)C)C(C)(C)C	-	L23I E34Q K43I M46I I50L G51A L63P A71V V82A T91A ATV resistant	NL4-3	MT-4	>1 µM
S=C(NCCc1ccccn1)Nc1ccc(Br)cn1	-	-	IIIB	PBMC	0.007 µM
CNC(=O)CCCCn1c(=O)c(C)cn([C@@H]2O[C@H](CO[Si](C)(C)C(C)(C)C)C3(OS(=O)(=O)C=C3N)[C@H]2O[Si](C)(C)C(C)(C)C)c1=O	-	-	-	-	0.03–0.76 µM
CN(C)c1ccc(C[C@@H]2[C@H](O)[C@@H](O)[C@@H](Cc3ccc(N(C)C)cc3)N(Cc3cccc(C(=O)Nc4nc5ccccc5[nH]4)c3)C(=O)N2Cc2cccc(C(=O)Nc3nc4ccccc4[nH]3)c2)cc1	3 d	-	RF	MT-2	<0.008 µM
Cc1ccc(C(O)c2cc(Cl)ccc2OCC(=O)Nc2ccc(S(N)(=O)=O)cc2C)c(C)c1	-	-	-	C8166	28.5 µM
Nc1nc(N)c2ncn([C@H]3CC[C@@H](CO)O3)c2n1	-	-	NL4-3	MT-2	19.12 µM
Cc1ccnc2c1NC(=O)c1cccnc1N2C1CC1	-	RT-V106A	RT-MDR(RT-V106A)	PBMC	5 µM
CC(=O)c1ccc(C)cc1NC(C(N)=O)c1c(Cl)cccc1Cl	-	-	-	-	0.01 µM
COc1ccc(S(=O)(=O)N(CC(C)C)C[C@@H](O)[C@H](Cc2ccccc2)NC(=O)O[C@H]2CO[C@H]3OCC(F)(F)[C@H]32)cc1	-	L10I G48V I54V A71V I84V L90M SQV resistant	NL4-3	MT-4	0.13 µM
O=C1CC(c2ccccc2)Oc2ccccc21	-	-	-	-	>20 µM
Nc1ncnc2c1ncn2CCOCP(=O)(O)O	-	-	IIIB	PBL	3.7 µM
Cc1cn([C@@H]2O[C@H](CO[Si](C)(C)C(C)(C)C)C3(OS(=O)(=O)C=C3N)[C@H]2O[Si](C)(C)C(C)(C)C)c(=O)n(CCCO)c1=O	-	-	-	-	0.03–0.76 µM
CO[P@](=O)(c1cc(C)cc(/C=C/C#N)c1)c1c(C(N)=O)[nH]c2ccc(Cl)cc12	-	Y181C	IIIB	MT-4	0.0021 µM
Cc1ccc(NC(=O)CSc2nnc(C(F)(F)F)n2-c2ccccc2)c(Br)c1	-	-	-	HeLa	0.0005 µM
O=[N+]([O-])c1ccccc1S(=O)(=O)c1ccccc1	-	-	IIIB	CEM + CEM-SS	5.41 µM
Cc1cn([C@H]2C=C[C@@H](CO)O2)c(=O)[nH]c1=O	-	-	-	MT-4	0.33 µM
Cc1cccc(NC(=S)NCCC2=CCCCC2)n1	-	-	IIIB	PBMC	0.017 µM
Cc1nnc(SCC(=O)Nc2ccc(S(N)(=O)=O)cc2Cl)n1-c1cccc2cccnc12	-	Y188L	-	HeLa	2.4 µM
CNc1nc(N)nc2c1ncn2[C@H]1CC[C@@H](CO)O1	-	-	NL4-3	MT-2	>20 µM
Nc1nc(N)c2ncn([C@H]3CO[C@@H](CO)O3)c2n1	-	-	IIIB	MT-4	0.95 µM
CC(C)=CCN1Cc2cc(Cl)cc3[nH]c(=S)n(c23)C[C@@H]1C	-	RT-M41L T215Y K103N	-	MT-4	<3 µM
OC[C@@]1(F)O[C@@H](n2cnc3c(N(Cc4ccccc4)Cc4ccccc4)ncnc32)C[C@@H]1OCc1ccccc1	-	-	-	-	4 µM
COC(=O)CCCCn1c(=O)c(C)cn([C@@H]2O[C@H](CO[Si](C)(C)C(C)(C)C)C3(OS(=O)(=O)C=C3N)[C@H]2O[Si](C)(C)C(C)(C)C)c1=O	-	-	-	-	0.03–0.76 µM
CCOCn1c(Sc2ccccc2)c(CC)c(=O)[nH]c1=S	-	-	IIIB	CEM	0.004 µg/mL
COC(=O)CCC(C)[C@H]1CCC2C3CC[C@@H]4C[C@H](OC(=O)c5ccccc5)CC[C@]4(C)C3=C(NC(=O)C(C)(C)C)C(=O)[C@@]21C	-	-	IIIB	C8166	200 µM
COCCn1c(=O)c(C)cn([C@@H]2O[C@H](CO[Si](C)(C)C(C)(C)C)C3(OS(=O)(=O)C=C3N)[C@H]2O[Si](C)(C)C(C)(C)C)c1=O	-	-	-	-	0.03–0.76 µM
[B-][P@](=O)(OC[C@H]1O[C@@H](n2cc(C)c(=O)[nH]c2=O)C[C@@H]1N=[N+]=[N-])OP(=O)(O)C(F)(F)P(=O)(O)O	-	-	-	CEM	1.1 µM
Cc1cn([C@H]2C=C[C@@H](COP(=O)(O)O)O2)c(=O)[nH]c1=O	-	-	-	CEM + CEM TK-	24 µM
Nc1nc(N)c2ncn([C@H]3C=C[C@@H](CO)O3)c2n1	-	-	NL4-3	MT-2	16.16 µM
Cc1cn([C@@H]2O[C@H](CO[Si](C)(C)C(C)(C)C)C3(OS(=O)(=O)C=C3N)[C@H]2O[Si](C)(C)C(C)(C)C)c(=O)n(CCCCO)c1=O	-	-	-	-	0.03–0.76 µM
CC(C)CN(C[C@@H](O)[C@H](Cc1ccccc1)NC(=O)O[C@H]1CO[C@H]2OCC[C@H]21)S(=O)(=O)c1ccc(C(N)=O)cc1	-	-	NL4-3	MT-4	0.038 µM
S=C(NCCC1=CCCCC1)Nc1ccc(Br)cn1	-	RT-K103N Y181C	A17	PBMC	18.7 µM
Cc1cn([C@H]2C=C[C@@H](COP(=O)(O)OCc3ccccc3)O2)c(=O)[nH]c1=O	-	-	-	MT-4	0.034 µM
CN(C)c1nc(N)nc2c1ncn2[C@H]1CC[C@@H](CO)O1	-	-	NL4-3	MT-2	16.56 µM
CCC(Cc1ccccc1)c1cc(O)c(C(CC)c2ccccc2)c(=O)o1	-	-	IIIB	MT-4	3 µM

The first 8 rows once more:

structure,setting,mutations,strain or isolate,cell line,value
OCC1(F)OC(n2cnc3c(N(Cc4ccccc4)Cc4ccccc4)ncnc32)CC1OCc1ccccc1,-,-,-,-,4 µM
Nc1ccc(C[C@@H]2[C@H](O)[C@@H](O)[C@@H](Cc3ccc(N)cc3)N(Cc3cccc(C(=O)Nc4nc5ccccc5[nH]4)c3)C(=O)N2Cc2cccc(C(=O)Nc3nc4ccccc4[nH]3)c2)cc1,3 d,PR-I84V,RF,MT-2,<0.023 µM
COC(=O)CCC(C)[C@H]1CCC2C3CC[C@@H]4C[C@H](OC(=O)c5ccccc5)CC[C@]4(C)C3=C(NC(=O)OCc3ccccc3)C(=O)[C@@]21C,-,-,IIIB,C8166,8 µM
CC(C)=CCOc1cc(NC(=S)c2ccoc2C)ccc1Cl,-,-,RF,CEM + CEM-SS,0.02 µM
Cc1cn([C@@H]2O[C@H](CO[Si](C)(C)C(C)(C)C)C3(OS(=O)(=O)C=C3N)[C@H]2O[Si](C)(C)C(C)(C)C)c(=O)n(CCC[N+](C)(C)C)c1=O.[I-],-,-,-,-,0.03–0.76 µM
Cc1cn([C@H]2C[C@H](N=[N+]=[N-])[C@@H](COP(=O)(O)OCc3ccccc3)O2)c(=O)[nH]c1=O,-,-,-,CEM + CEM-SS,<0.005 µM
Nc1ccn([C@@H]2S[C@H](CO)C=C2F)c(=O)n1,-,-,xxBRU,PBMC,<5 µM
CC(C)CN(C[C@@H](O)[C@H](Cc1ccccc1)NC(=O)O[C@H]1CCOC1)S(=O)(=O)c1ccc(N)cc1,-,-,-,MT-4,0.032 µM

Lines come from different laboratories, so protocols vary. An empty or dashed field is not shown. Two numbers with a dash give a range or band.